Numbers after ± are expanded uncertainties.

19 compounds from the NIST ThermoML archive (doi:10.1016/j.jct.2018.07.024) can be followed below.

This data set is described as follows: activity coefficient (dimensionless); xn = mol fraction of the nth substance listed. As to conditions: 101.33 kPa, Liquid, Chromatography, x1 = 0.

For the compound `CCOCC` [diethyl ether] + CCCCCCCC[N+](CC)(CC)CC.O=S(=O)(F)[N-]S(=O)(=O)F, the activity coefficient amounted to 2.05 ± 0.14 (318.15 K); 2.13 ± 0.14 (328.15 K); 2.22 ± 0.15 (338.15 K); 2.31 ± 0.16 (348.15 K); 2.39 ± 0.16 (358.15 K); 2.47 ± 0.17 (368.15 K).

For `CCCC(=O)OC` [methyl butanoate] + CCCC[N+]1(C)CCCC1.O=S(=O)(F)[N-]S(=O)(=O)F, the activity coefficient (318.15 K) worked out at 1.65 ± 0.11; the activity coefficient (328.15 K) was 1.75 ± 0.12; the activity coefficient (338.15 K) stood at 1.84 ± 0.12; the activity coefficient (348.15 K) came out at 1.95 ± 0.13; the activity coefficient (358.15 K) was determined as 2.05 ± 0.14; the activity coefficient (368.15 K) amounted to 2.15 ± 0.15.

On to `CCCCCC` [hexane] + CCCC[N+]1(C)CCCC1.O=S(=O)(F)[N-]S(=O)(=O)F, for which the activity coefficient amounted to 28.1 ± 1.9 (318.15 K); 27.3 ± 1.9 (328.15 K); 26.8 ± 1.8 (338.15 K); 26.2 ± 1.8 (348.15 K); 25.7 ± 1.8 (358.15 K); 25.3 ± 1.7 (368.15 K).

`C#CCCCCCC` [1-octyne] + CCCC[N+]1(C)CCCC1.O=S(=O)(F)[N-]S(=O)(=O)F: the activity coefficient runs as follows: (318.15 K) 7.35 ± 0.5; (328.15 K) 7.61 ± 0.52; (338.15 K) 7.86 ± 0.54; (348.15 K) 8.11 ± 0.55; (358.15 K) 8.35 ± 0.57; (368.15 K) 8.6 ± 0.59.

Take `C=C(C)c1ccccc1` [(1-methylethenyl)benzene] + CCCC[N+]1(C)CCCC1.O=S(=O)(F)[N-]S(=O)(=O)F: the activity coefficient was 1.78 ± 0.12 (318.15 K); 1.93 ± 0.13 (328.15 K); 2.09 ± 0.14 (338.15 K); 2.25 ± 0.15 (348.15 K); 2.42 ± 0.16 (358.15 K); 2.59 ± 0.18 (368.15 K).

For `C=CCCC` [1-pentene] + CCCC[N+]1(C)CCCC1.O=S(=O)(F)[N-]S(=O)(=O)F, the activity coefficient runs as follows: (318.15 K) 8.98 ± 0.61; (328.15 K) 9.12 ± 0.62; (338.15 K) 9.26 ± 0.63; (348.15 K) 9.39 ± 0.64; (358.15 K) 9.51 ± 0.65; (368.15 K) 9.65 ± 0.66.

Take `CC(C)=O` [acetone] + CCCCCCCC[N+](CC)(CC)CC.O=S(=O)(F)[N-]S(=O)(=O)F: the activity coefficient amounted to 0.493 ± 0.038 (318.15 K); 0.521 ± 0.039 (328.15 K); 0.55 ± 0.04 (338.15 K); 0.578 ± 0.041 (348.15 K); 0.604 ± 0.042 (358.15 K); 0.631 ± 0.044 (368.15 K).

For `CCCCCCCCCC` [decane] + CCCCCCCC[N+](CC)(CC)CC.O=S(=O)(F)[N-]S(=O)(=O)F, the activity coefficient by setting is: (318.15 K) 24.2 ± 1.7; (328.15 K) 23.5 ± 1.6; (338.15 K) 22.9 ± 1.6; (348.15 K) 22.4 ± 1.5; (358.15 K) 21.9 ± 1.5; (368.15 K) 21.4 ± 1.5.

Turning to `Cc1cccc(C)c1` [1,3-dimethylbenzene] + CCCC[N+]1(C)CCCC1.O=S(=O)(F)[N-]S(=O)(=O)F, the activity coefficient turned out to be 2.11 ± 0.14 (318.15 K); 2.25 ± 0.15 (328.15 K); 2.4 ± 0.16 (338.15 K); 2.54 ± 0.17 (348.15 K); 2.68 ± 0.18 (358.15 K); 2.83 ± 0.19 (368.15 K).

On to `CCCCCCCCC` [nonane] + CCCCCCCC[N+](CC)(CC)CC.O=S(=O)(F)[N-]S(=O)(=O)F, for which the activity coefficient (318.15 K) was determined as 18.9 ± 1.3; the activity coefficient (328.15 K) was determined as 18.5 ± 1.3; the activity coefficient (338.15 K) came to 18 ± 1.2; the activity coefficient (348.15 K) was found to be 17.7 ± 1.2; the activity coefficient (358.15 K) came to 17.3 ± 1.2; the activity coefficient (368.15 K) was 16.9 ± 1.2.

On to `C=CCCCCCC` [oct-1-ene] + CCCC[N+]1(C)CCCC1.O=S(=O)(F)[N-]S(=O)(=O)F, for which the activity coefficient reads like this: (318.15 K) 25.4 ± 1.7; (328.15 K) 25 ± 1.7; (338.15 K) 24.7 ± 1.7; (348.15 K) 24.3 ± 1.7; (358.15 K) 24.1 ± 1.6; (368.15 K) 23.9 ± 1.6.

Consider `C#CCCCC` [1-hexyne] + CCCCCCCC[N+](CC)(CC)CC.O=S(=O)(F)[N-]S(=O)(=O)F, for which the activity coefficient was 1.85 ± 0.12 (318.15 K); 1.96 ± 0.13 (328.15 K); 2.07 ± 0.14 (338.15 K); 2.19 ± 0.15 (348.15 K); 2.29 ± 0.16 (358.15 K); 2.4 ± 0.16 (368.15 K).

Regarding `COC(C)(C)C` [2-methoxy-2-methylpropane] + CCCCCCCC[N+](CC)(CC)CC.O=S(=O)(F)[N-]S(=O)(=O)F, the activity coefficient (318.15 K) came to 1.98 ± 0.13; the activity coefficient (328.15 K) was found to be 2.09 ± 0.14; the activity coefficient (338.15 K) is 2.2 ± 0.15; the activity coefficient (348.15 K) stood at 2.31 ± 0.16; the activity coefficient (358.15 K) came to 2.42 ± 0.16; the activity coefficient (368.15 K) stood at 2.53 ± 0.17.

Turning to `CCCCCCC` [heptane] + CCCCCCCC[N+](CC)(CC)CC.O=S(=O)(F)[N-]S(=O)(=O)F, the activity coefficient worked out at 11.4 ± 0.8 (318.15 K); 11.3 ± 0.8 (328.15 K); 11.2 ± 0.8 (338.15 K); 11.1 ± 0.8 (348.15 K); 10.9 ± 0.7 (358.15 K); 10.8 ± 0.7 (368.15 K).

Turning to `COC(C)=O` [methyl ethanoate] + CCCCCCCC[N+](CC)(CC)CC.O=S(=O)(F)[N-]S(=O)(=O)F, the activity coefficient stood at 0.753 ± 0.05 (318.15 K); 0.792 ± 0.052 (328.15 K); 0.832 ± 0.054 (338.15 K); 0.871 ± 0.056 (348.15 K); 0.909 ± 0.058 (358.15 K); 0.949 ± 0.06 (368.15 K).

Turning to `CCCO` [propan-1-ol] + CCCC[N+]1(C)CCCC1.O=S(=O)(F)[N-]S(=O)(=O)F, the activity coefficient by setting is: (318.15 K) 2.84 ± 0.19; (328.15 K) 2.68 ± 0.18; (338.15 K) 2.54 ± 0.17; (348.15 K) 2.42 ± 0.16; (358.15 K) 2.3 ± 0.16; (368.15 K) 2.21 ± 0.15.

In the case of `CCc1ccccc1` [ethylbenzene] + CCCCCCCC[N+](CC)(CC)CC.O=S(=O)(F)[N-]S(=O)(=O)F, the activity coefficient runs as follows: (318.15 K) 1.17 ± 0.07; (328.15 K) 1.25 ± 0.08; (338.15 K) 1.32 ± 0.09; (348.15 K) 1.4 ± 0.09; (358.15 K) 1.47 ± 0.1; (368.15 K) 1.54 ± 0.1.

For `Cc1ccccc1` [toluene] + CCCC[N+]1(C)CCCC1.O=S(=O)(F)[N-]S(=O)(=O)F, the activity coefficient runs as follows: (318.15 K) 1.49 ± 0.1; (328.15 K) 1.59 ± 0.11; (338.15 K) 1.68 ± 0.11; (348.15 K) 1.78 ± 0.12; (358.15 K) 1.88 ± 0.13; (368.15 K) 1.97 ± 0.13.

In the case of `CCCCO` [butan-1-ol] + CCCCCCCC[N+](CC)(CC)CC.O=S(=O)(F)[N-]S(=O)(=O)F, the activity coefficient (318.15 K) is 2.51 ± 0.17; the activity coefficient (328.15 K) was found to be 2.37 ± 0.16; the activity coefficient (338.15 K) stood at 2.24 ± 0.15; the activity coefficient (348.15 K) worked out at 2.12 ± 0.14; the activity coefficient (358.15 K) was 2.02 ± 0.14; the activity coefficient (368.15 K) was determined as 1.93 ± 0.13.
